A mixed list of measured activities; the numbers were collected in NIAID ChemDB.

All rows: whole-cell or culture tests; species: Mycobacterium tuberculosis

Inhibition is in % at the dose shown (toxicity tests: loss of growth or viability). ECn: concentration that inhibits the pathogen or its effect by n%. An empty or dashed field is not shown. MIC bound comes from a single tested concentration. Rows are shuffled and stem from different studies. A number after MIC or MFC names an inhibition level or a share of isolates.

compound,read by,changes,tested at,strain or isolate,conditions,endpoint,result
CCn1cc(C(=O)O)c(=O)c2cc(F)c(N3CCNCC3)cc21,-,-,-,-,-,MIC90,8 µg/mL
Cc1cc(NS(=O)(=O)c2ccc(NC(=O)Nc3ccc(S(=O)(=O)Nc4cc(C)on4)cc3)cc2)no1,broth dilution / absorbance,-,-,H37Rv,21 d,MIC100,2 µM
CCOC(=O)N1CCN(c2ccc(C3CC(c4ccc([N+](=O)[O-])o4)=NO3)cc2)CC1,-,-,-,H37Rv,-,MIC,0.006 µg/mL
CO[C@H]1/C=C/O[C@@]2(C)Oc3c(C)c(O)c4c(=O)c(c5oc6cc(N7CCN(CC(C)C)CC7)cc(=O)c6nc5c4c3=C2O)NC(=O)/C(C)=C\C=C\[C@H](C)[C@H](O)[C@@H](C)[C@@H](O)[C@@H](C)[C@H](OC(C)=O)[C@@H]1C,-,-,-,H37Rv,-,MIC,≤0.015 µg/mL
Cc1cccc(OC(=O)c2ccc(N)cc2O)c1,-,-,-,Frankfurt,-,MIC,0.05 µg/mL
CN(c1ccccc1Cl)S(=O)(=O)c1ccccc1[N+](=O)[O-],BACTEC,-,-,H37Rv,-,MIC bound,>12.5 µg/mL
C=CCS/C(N)=N/NC(=O)c1ccc(F)cc1,-,-,-,H37Rv,-,MIC,>100 µg/mL
O=C(NCCNCCO)c1cc([N+](=O)[O-])cc([N+](=O)[O-])c1O,-,-,-,H37Rv,-,MIC bound,>6.25 µg/mL
C=CCS/C(N)=N/NC(=O)c1ccc(Cl)cc1,-,-,-,H37Rv,-,MIC,>100 µg/mL
CCN(CC)CCNc1ccc(C)c2oc3ccc(O)cc3c(=O)c12,BACTEC,-,12.5 µg/mL,H37Rv,-,inhibition,90%
C/C(=N\NC(=O)c1cc(Cl)ccc1Cl)c1ccccc1,-,-,-,-,-,MIC,200 µg/mL
CCCNC(=O)Nc1ccc(S(=O)(=O)Nc2cc(C)on2)cc1,broth dilution / absorbance,-,-,H37Rv,14 d,MIC100,>1000 µM
N=C1/C(=C/c2ccccc2O)C(=O)NN1C(=O)c1ccncc1,resazurin,-,-,H37Rv,-,MIC,0.78 µg/mL
CCNC(=O)Nc1ccc(S(=O)(=O)Nc2cc(C)on2)cc1,broth dilution / absorbance,-,-,H37Rv,14 d,MIC100,62.5 µM
O=C(NNC(=O)c1ccncc1)Nc1cc(Cl)cc(Cl)c1,broth dilution,-,-,My 331/88,14 d,MIC100,32 µM
Cc1cc(NS(=O)(=O)c2ccc(NC(=O)N(C(C)C)C(C)C)cc2)no1,broth dilution / absorbance,-,-,H37Rv,21 d,MIC100,250 µM
O=C(NNC(=O)c1ccc([N+](=O)[O-])cc1)c1ccc([N+](=O)[O-])cc1,-,-,-,-,-,MIC,>200 µg/mL
COc1ccc(C(=O)/C=C/c2ccc(F)cc2)c(F)c1,resazurin,-,-,H37Rv,21 d,MIC,32 µg/mL
CCCCCCCCCCCCCCCCCC(=O)OCC(O)CO,BACTEC,-,12.5 µg/mL,H37Rv,-,inhibition,-15%
COc1ccc(/C=N/NC(=O)c2ccc(OC)cc2)cc1,-,-,-,-,-,MIC,200 µg/mL
COC(=O)[C@@H]1CN(C(=O)CCc2ccccc2)C(=O)N1C(=O)OCc1ccccc1,BACTEC,-,-,H37Rv,-,MIC bound,>12.5 µg/mL
O=C(NNC(=O)c1ccncc1)Nc1ccc(Br)cc1Br,broth dilution,-,-,My 331/88,14 d,MIC100,8 µM
CO[C@H]1/C=C/O[C@@]2(C)Oc3c(C)c(O)c4c(O)c(c(/C=N/N5CCN(C)CC5)c(O)c4c3C2=O)NC(=O)/C(C)=C\C=C\[C@H](C)[C@H](O)[C@@H](C)[C@@H](O)[C@@H](C)[C@H](OC(C)=O)[C@@H]1C,resazurin,MDR,-,Clinical isolate,-,MIC,>12.5 µg/mL
Cc1ccc(NC(=O)NNC(=O)c2ccncc2)cc1,broth dilution,-,-,My 331/88,21 d,MIC100,62.5 µM
CCOC(=O)CON=c1c2ccccc2ccc2ccccc12,BACTEC,-,12.5 µg/mL,H37Rv,-,inhibition,1%
CC1COc2c(N3CCN(C)CC3)c(F)cc3c(=O)c(C(=O)O)cn1c23,-,-,-,18 strains,-,MIC50,1 µg/mL
O=[N+]([O-])c1cn2c(n1)OC[C@@H](OCc1ccc(OC(F)(F)F)cc1)C2,-,-,-,UT18,-,MIC,0.024 µg/mL
COc1cc(C(=O)N/N=C(\N)SC)cc(OC)c1OC,-,-,-,H37Rv,-,MIC,>100 µg/mL
Nc1ccc(C(=O)Oc2ccccc2)c(O)c1,-,-,-,H37Rv (streptomycin-resistant),-,MIC,0.005 µg/mL
COc1cc(OC)c(OC)cc1/C=C1\N=C(c2ccccc2)OC1=O,BACTEC,-,-,H37Rv,-,MIC bound,>12.5 µg/mL
CC1COc2c(N3CCN(C)CC3)c(F)cc3c(=O)c(C(=O)O)cn1c23,-,-,-,2888-3,-,MIC,1 µg/mL
Clc1ccc(Nc2nnc(-c3ccncc3)o2)cc1Cl,broth dilution,-,-,My 331/88,21 d,MIC100,>125 µM
NNC(=O)c1ccncc1,broth dilution / resazurin,-,-,H37Rv,-,MIC,0.91 µg/mL
COC(=O)[C@]1(C)CCC[C@]2(C)C3=CC(=O)[C@@]4(C(C)C)O[C@H]4[C@]3(O)CC[C@@H]12,BACTEC,-,-,H37Rv,-,MIC,≥12.5 µg/mL
NNC(=O)c1ccncc1,broth dilution,-,-,My 331/88,14 d,MIC100,0.5 µM
CC(=O)Nc1ccc2oc3ccc(Cl)cc3c(=O)c2c1,BACTEC,-,-,H37Rv,-,MIC bound,>12.5 µg/mL
O=C(N/N=C/c1c(O)cccc1O)c1cccnc1.[Cl][Ni][Cl],broth dilution / resazurin,-,-,H37Rv,-,MIC,0.66 µg/mL
Oc1cc(Cl)ccc1Oc1ccc(Cl)cc1Cl,-,-,-,H37Rv,-,MIC,34.5 µM
CCCCCCOc1cccc(NC(=O)OCCN2CCCCC2)c1,-,-,-,My 331/88,-,MIC,16 µM
O=c1ccn(COCCO)c(=O)[nH]1,-,-,-,H37Ra,-,EC50,>100 µg/mL
O=C(NNC(=O)c1ccncc1)Nc1ccc(Br)c(F)c1,broth dilution,-,-,My 331/88,21 d,MIC100,62.5 µM
[N-]=[N+]=NC(CI)c1cn(COCCO)c(=O)[nH]c1=O,-,-,-,H37Ra,-,EC50,10 µg/mL
COc1cc(O)cc2c1C(=O)C(C)O2,BACTEC,-,12.5 µg/mL,H37Rv,-,inhibition,44%
O=C(/C=C/c1ccccc1)c1ccccc1,resazurin,-,-,H37Rv,21 d,MIC,32 µg/mL
S=C(c1cccs1)N1CCN(c2cccc(Cl)c2)CC1,resazurin,-,-,-,-,MIC bound,>6.25 µg/mL
O=c1[nH]c(=O)n(COC(CO)CO)cc1I,-,-,-,H37Ra,-,EC50,>100 µg/mL
CCCCCOc1ccc(NC(=O)OC(C)CN2CCCCC2)cc1,-,-,-,My 331/88,-,MIC,32 µM
Oc1cc(Cl)ccc1Oc1ccc(Cl)cc1Cl,resazurin,INH resistant,-,Clinical isolate,-,MIC,>12.5 µg/mL
CO[C@H]1/C=C/O[C@@]2(C)Oc3c(C)c(O)c4c(O)c(cc(O)c4c3C2=O)NC(=O)/C(C)=C\C=C\[C@H](C)[C@H](O)[C@@H](C)[C@@H](O)[C@@H](C)[C@H](OC(C)=O)[C@@H]1C,-,-,-,Schiavo,-,MIC,0.005 µg/mL
O=C(NNC(=O)c1ccncc1)Nc1ccc(F)c(C(F)(F)F)c1,broth dilution,-,-,My 331/88,21 d,MIC100,32 µM
O=c1[nH]c(=O)n(COCCO)cc1Br,-,-,-,H37Ra,-,EC50,>100 µg/mL
CC(=O)c1c(O)c(C)c(O)c2c1OC1=CC(=O)C(C(C)=O)C(=O)C12C,-,-,-,TAC-R,-,MIC,12.5 µg/mL
c1ccc(-c2nnc(-c3ccccc3)s2)cc1,-,-,-,-,-,MIC,>200 µg/mL
O=C(/C=C/c1ccc(F)cc1Cl)c1ccccc1,resazurin,-,-,H37Rv,7 d,MIC,32 µg/mL
CC1=CC(=Nc2ccc(N(C)C)cc2)C=CC1=O,resazurin,-,6.25 µg/mL,H37Rv,-,inhibition,4%
CC1COc2c(N3CCN(C)CC3)c(F)cc3c(=O)c(C(=O)O)cn1c23,-,-,-,25 strains,-,MIC50,0.78 µg/mL
Cc1nc([N+](=O)[O-])cn1-c1ccc([N+](=O)[O-])cc1,-,-,-,H37Rv,-,MIC,>6.25 µg/mL
O=C(/C=C/c1ccccc1)c1ccc(F)cc1,resazurin,-,-,H37Rv,21 d,MIC,32 µg/mL
S=C1SCN(c2ccc3c(c2)OCO3)CN1c1ccc2c(c1)OCO2,BACTEC,-,12.5 µg/mL,H37Rv,-,inhibition,-28%
C[C@]1(COc2ccc(N3CCC(Oc4ccc(OC(F)(F)F)cc4)CC3)cc2)Cn2cc([N+](=O)[O-])nc2O1,-,-,-,UT15,-,MIC,0.012 µg/mL
NC(=O)c1cnccn1,-,-,-,M4597/NIACIN+,-,MIC,64 µg/mL
N/C(=N\NC(=O)c1ccc(Cl)cc1)SCc1cccc(Cl)c1,-,-,-,H37Rv,-,MIC,>100 µg/mL
NNC(=O)c1ccncc1,resazurin,-,-,H37Rv,-,MIC,0.125 µg/mL
COc1ccc2ccc3cccnc3c2n1,BACTEC,-,12.5 µg/mL,H37Rv,-,inhibition,33%
CC(C)(C)c1ccc(NC(=O)NNC(=O)c2ccncc2)cc1,broth dilution,-,-,My 331/88,14 d,MIC100,8 µM
Cc1ccc(C(=O)/C=C/c2ccccc2)c(F)c1,MTT,-,-,H37Rv,7 d,MIC,16 µg/mL
CCCCCCOc1ccc(NC(=O)OC(COCC)CN2CCCCC2)cc1,-,-,-,My 331/88,-,MIC,16 µM
N#CNNC(=O)CCCCC(=O)NNC#N,-,-,-,-,-,MIC,>40 µg/mL
O=[N+]([O-])c1ccc(-n2cnc([N+](=O)[O-])c2)cc1,-,-,6.25 µg/mL,H37Rv,-,inhibition,0%
CCCCCCOc1cccc(NC(=O)OC(C)CN2CCCCC2)c1,-,-,-,My 331/88,-,MIC,8 µM
O=C(/C=C/c1ccc(F)cc1)c1ccc(F)cc1,MTT,-,-,H37Rv,14 d,MIC,32 µg/mL
CC1(C)CC[C@]2(C(=O)O)CC[C@]3(C)C(CC[C@@H]4[C@@]5(C)C[C@H](O)CC(C)(C)[C@@H]5CC[C@]43C)[C@@H]2C1,resazurin,-,-,Clinical isolate MTY147,-,MIC,50 µg/mL
CS/C(N)=N/NC(=O)c1ccc(C)cc1,-,-,-,H37Rv,-,MIC,>100 µg/mL
COc1ccc(-n2cc([N+](=O)[O-])nc2C)cc1,-,-,-,H37Rv,-,MIC,>6.25 µg/mL
Cc1cc(NS(=O)(=O)c2ccc(NC(=O)C(=O)Nc3ccc(S(=O)(=O)Nc4cc(C)on4)cc3)cc2)no1,broth dilution / absorbance,-,-,H37Rv,21 d,MIC100,4 µM
CO[C@H]1/C=C/O[C@@]2(C)Oc3c(C)c(O)c4c(=O)c(c5oc6cc(N7CCN(CC(C)C)CC7)cc(=O)c6nc5c4c3=C2O)NC(=O)/C(C)=C\C=C\[C@H](C)[C@H](O)[C@@H](C)[C@@H](O)[C@@H](C)[C@H](OC(C)=O)[C@@H]1C,-,-,1 µg/mL,H37Rv,inside macrophages,inhibition,97.4%
COC(=O)c1ccc(NCc2c(O)ccc(O)c2Br)cc1Cl,BACTEC,-,12.5 µg/mL,H37Rv,-,inhibition,0%
Oc1cc(C(O)CCc2ccc(Cl)cc2)ccc1Oc1ccccc1,resazurin,-,-,H37Rv,-,MIC,4 µg/mL
COc1cccc(/C=C/C(=O)c2ccc(F)cc2)c1F,MTT,-,-,H37Rv,14 d,MIC,32 µg/mL
CSC1C(=O)Nc2ccc3ccccc3c21,resazurin,-,6.25 µg/mL,H37Rv,-,inhibition,25%
Cc1ccc(CCC(O)c2ccc(Oc3ccccc3)c(O)c2)cc1,resazurin,INH resistant,-,Clinical isolate,-,MIC,6.25 µg/mL
Cc1cc(NS(=O)(=O)c2ccc(NC(=O)N3CCC3)cc2)no1,broth dilution / absorbance,-,-,H37Rv,14 d,MIC100,2 µM
NC(=S)NNC(=O)c1ccc([N+](=O)[O-])cc1,-,-,-,H37Rv,-,MIC,>100 µg/mL
CCC(C)c1cc(C)cc(OC(=O)c2ccc(N)cc2O)c1,-,-,-,H37Rv,-,MIC,2.5 µg/mL
CN[C@@H]1[C@H](O[C@H]2[C@H](O[C@H]3[C@H](O)[C@@H](O)[C@H](N=C(N)N)[C@@H](O)[C@@H]3N=C(N)N)O[C@@H](C)[C@]2(O)C=O)O[C@@H](CO)[C@H](O)[C@H]1O,-,-,-,H37Rv (streptomycin-susceptible),-,MIC,<4 µg/mL
NC(=S)NNC(=O)c1ccccc1,-,-,-,H37Rv,-,MIC,>100 µg/mL
Nc1nc(N)c(N=Nc2c(Br)cc(S(N)(=O)=O)cc2Br)c(=O)[nH]1,BACTEC,-,-,H37Rv,-,MIC bound,>12.5 µg/mL
O=C(/C=C/c1ccccc1Cl)c1ccc(F)cc1,resazurin,-,-,H37Rv,14 d,MIC,32 µg/mL

For reference, 7 entries again:

| compound | read by | changes | tested at | strain or isolate | conditions | endpoint | result |
|---|---|---|---|---|---|---|---|
| CCOC(=O)CON=c1c2ccccc2ccc2ccccc12 | BACTEC | - | 12.5 µg/mL | H37Rv | - | inhibition | 1% |
| NC(=O)c1cnccn1 | - | - | - | M4597/NIACIN+ | - | MIC | 64 µg/mL |
| N/C(=N\NC(=O)c1ccc(Cl)cc1)SCc1cccc(Cl)c1 | - | - | - | H37Rv | - | MIC | >100 µg/mL |
| NNC(=O)c1ccncc1 | resazurin | - | - | H37Rv | - | MIC | 0.125 µg/mL |
| COc1cc(O)cc2c1C(=O)C(C)O2 | BACTEC | - | 12.5 µg/mL | H37Rv | - | inhibition | 44% |
| CN(c1ccccc1Cl)S(=O)(=O)c1ccccc1[N+](=O)[O-] | BACTEC | - | - | H37Rv | - | MIC bound | >12.5 µg/mL |
| CC(=O)c1c(O)c(C)c(O)c2c1OC1=CC(=O)C(C(C)=O)C(=O)C12C | - | - | - | TAC-R | - | MIC | 12.5 µg/mL |